{"source": "PubChem BioAssay AID624099, ICCB-Longwood | 2012", "test": "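Human genes that papillomavirus E2 requires to repress the HPV18 LCR promoter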 (primary screen)", "cells": "human C33A cervical carcinoma cells (HPV-negative) stably expressing BPV1 E2 and an HPV18 LCR luciferase reporter", "knock-down reagent": "siRNA pool against human genes, 40 nM", "duration": "72 h", "measurement": "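Per-well luciferase luminescence, z-scored on each plate against the plate mean and SD with control wells left out, then averaged across three replicate plates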", "scale": "mean z-score and z-score: higher = stronger reporter signal, weaker E2 silencing", "hit rule": "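Mean z ≥ 2 together with z ≥ 2 in two or more of the three replicates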", "note": "The whole screen tested about 21,000 reagents; shown is an unselected part. Over the whole deposit, 497 (2.4%) are marked active. 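Higher z means weaker E2 silencing; only reporter increases were scored, and knock-downs that hurt cell survival may mask genuine repressor factors.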"}
{"gene symbol": "THAP3 (THAP domain containing 3)", "mean z-score": -1.32, "z-score, replicate A": -1.3, "z-score, replicate B": -1.47, "z-score, replicate C": -1.2, "outcome": "inactive"}
{"gene symbol": "NLRP12 (NLR family pyrin domain containing 12)", "mean z-score": -0.64, "z-score, replicate A": -0.93, "z-score, replicate B": -0.33, "z-score, replicate C": -0.65, "outcome": "inactive"}
{"gene symbol": "TSTD2 (thiosulfate sulfurtransferase like domain containing 2)", "mean z-score": -1.32, "z-score, replicate A": -1.18, "z-score, replicate B": -1.17, "z-score, replicate C": -1.62, "outcome": "inactive"}
{"gene symbol": "MLST8 (MTOR associated protein MLST8)", "mean z-score": 0.81, "z-score, replicate A": 1, "z-score, replicate B": 0.16, "z-score, replicate C": 1.26, "outcome": "inactive"}
{"gene symbol": "TRIM65 (tripartite motif containing 65)", "mean z-score": -0.32, "z-score, replicate A": -0.39, "z-score, replicate B": -0.07, "z-score, replicate C": -0.49, "outcome": "inactive"}
{"gene symbol": "RBM7 (RNA binding motif protein 7)", "mean z-score": 1.12, "z-score, replicate A": 0.84, "z-score, replicate B": 1.24, "z-score, replicate C": 1.29, "outcome": "inactive"}
{"gene symbol": "UTP23 (UTP23 small subunit processome component)", "mean z-score": -0.43, "z-score, replicate A": -0.66, "z-score, replicate B": -0.33, "z-score, replicate C": -0.29, "outcome": "inactive"}
{"gene symbol": "LINC01341 (long independently transcribed non-coding RNA 1341)", "mean z-score": -0.9, "z-score, replicate A": -1.73, "z-score, replicate B": -0.69, "z-score, replicate C": -0.29, "outcome": "inactive"}
{"gene symbol": "CLDN20 (claudin 20)", "mean z-score": 0.16, "z-score, replicate A": 0.31, "z-score, replicate B": -0.13, "z-score, replicate C": 0.32, "outcome": "inactive"}
{"gene symbol": "WIPF1 (WAS/WASL interacting protein family member 1)", "mean z-score": 1.25, "z-score, replicate A": 0.58, "z-score, replicate B": 1.32, "z-score, replicate C": 1.85, "outcome": "inactive"}
{"gene symbol": "IL21 (interleukin 21)", "mean z-score": -0.68, "z-score, replicate A": -0.88, "z-score, replicate B": -1, "z-score, replicate C": -0.16, "outcome": "inactive"}
{"gene symbol": "C1RL (complement C1r subcomponent like)", "mean z-score": -0.73, "z-score, replicate A": -0.51, "z-score, replicate B": -1.17, "z-score, replicate C": -0.49, "outcome": "inactive"}
{"gene symbol": "MUC13 (mucin 13, cell surface associated)", "mean z-score": -0.6, "z-score, replicate A": -0.92, "z-score, replicate B": -0.63, "z-score, replicate C": -0.25, "outcome": "inactive"}
{"gene symbol": "SYCN (syncollin)", "mean z-score": -1.25, "z-score, replicate A": -1.04, "z-score, replicate B": -1.29, "z-score, replicate C": -1.42, "outcome": "inactive"}

Only “mean z-score”, for 2 of the entries above:
THAP3 (THAP domain containing 3)	-1.32
NLRP12 (NLR family pyrin domain containing 12)	-0.64
